{"source": "paper PMC11952669", "about": "(Research Square, 2025)", "target": "Biotinylated HsItaly2011 RBD (residues 388–589) (bat MERSr-CoV HsItaly2011 (from Hypsugo savii))", "assay": "BLI", "data": [{"substance": "R.nor ACE2 ectodomain (residues 1–741), dimeric (from UniProt Q5EGZ1 18-741) (receptor)", "values": [{"measurement": "Kd", "value": 121, "unit": "nM"}]}]}
